A mixed list of measured activities; the numbers were collected in NIAID ChemDB.

Common to all: whole-cell or culture tests; organism: Mycobacterium tuberculosis

Two numbers with a dash give a range or band.

SMILES | dose | strain or isolate | read-out | mutations | read by | value
COc1nc(N)c(NC2OC[C@@H](O)[C@H](O)[C@H]2O)c(=O)n1C |  | H37Rv | MIC bound |  | BACTEC | >12.5 µg/mL
O=c1oc2ccccc2c(O)c1C1=NN(c2ccccc2)C(c2ccc(Cl)cc2Cl)C1 |  | H37Rv | MIC90 |  | agar | 6.94 µg/mL
Cc1ccc(C)c(CSc2nc(=O)[nH]c3nc[nH]c23)c1 |  | H37Ra | MIC |  |  | >12.8 µg/mL
NNC(=O)c1ccncc1 |  | H37Rv | MIC |  | resazurin | 0.07 µg/mL
CC1(C)CC(=O)C2=C(C1)N(Nc1ccc(Br)cc1)C(N)=C(C#N)C2c1cc2cc(Cl)ccc2nc1Cl |  | H37Rv | MIC |  | agar | 85 µg/mL
C(=C\c1ccccc1)/CCNc1ccc(N2CCSCC2)cc1 |  | 103471 | MIC |  |  | 8 µg/mL
COc1cccc(/C=C2\COc3ccccc3C2=O)c1 |  | H37Rv | EC50 |  | broth dilution / resazurin | <0.2 µg/mL
Cc1ccc(C)c(Sc2ncccn2)c1 |  | H37Rv | MIC90 |  |  | >6.25 µg/mL
COc1ccc2nc(Oc3ccccc3)c(C3C(C#N)=C(N)Oc4c3c(=O)oc3ccc(C)cc43)cc2c1 | 250 µg/mL | H37Rv | inhibition |  |  | 45%
C[C@H]1[C@H](C)CC[C@]2(C(=O)O)CC[C@]3(C)C(CC[C@@H]4[C@@]5(C)C[C@H](O)CC(C)(C)[C@@H]5CC[C@]43C)[C@H]12 |  | H37Rv (ATCC 27294) | MIC |  | resazurin | 25 µg/mL
CO[C@H]1/C=C/O[C@@]2(C)Oc3c(C)c(O)c4c(=O)c(c5oc6cc(N7CCN(CC(C)C)CC7)cc(=O)c6nc5c4c3=C2O)NC(=O)/C(C)=C\C=C\[C@H](C)[C@H](O)[C@@H](C)[C@@H](O)[C@@H](C)[C@H](OC(C)=O)[C@@H]1C |  | H37Rv | MBC |  |  | 0.016 µg/mL
Cc1ccc2[nH]c(O)c(N=NC(=S)Nc3ccc(Br)cc3)c2c1 |  | H37Rv | EC90 |  | broth dilution / resazurin | >100 µg/mL
Cc1ccc(Nc2ccc(O)c3c2C(=O)c2c(O)ccc(Nc4ccc(C)cc4)c2C3=O)cc1 |  | H37Rv | MIC bound |  | BACTEC | >12.5 µg/mL
O=c1oc2ccc(Br)cc2c(=O)n1-c1ccc(F)cc1 |  | CNCTC MY331/88 | MIC |  |  | 16 µM
O=C1OC2(O)c3ccccc3C(=O)N2N2CCCC12 | 6.25 µg/mL | H37Rv | inhibition |  | resazurin | 8%
COc1c(N2CC[C@@H](C(C)(C)N)C2)c(F)cc2c(=O)c3c(=O)[nH]sc3n(C3CC3)c12 |  | Multidrug-resistant isolate 9 | MIC |  |  | 0.06 µg/mL
O=C(Nc1cccc(N2CCSCC2)c1)c1ccc(-c2ccccc2)cc1 |  | 103471 | MIC |  |  | >16 µg/mL
CCn1cc(C(=O)O)c(=O)c2cc(F)c(N3CCNC(C)C3)c(F)c21 |  | 5 strains (wild type) | MIC |  |  | 0.5–2 µg/mL
CCCCCCCCCCCC(=O)NC1CC(O[C@H]2C[C@](O)(C(=O)CO)Cc3c(O)c4c(c(O)c32)C(=O)c2c(OC)cccc2C4=O)OC(C)C1O |  | H37Rv | MIC |  | BACTEC | ≥12.5 µg/mL
O=C(NCc1ccc([N+](=O)[O-])cc1)c1ncccc1S |  | CNCTC MY 331/8 | MIC |  |  | 16 µM
CCCCN1CCN(c2ccc3nc(-c4ccc5nc(-c6ccc(OC)c(OC)c6)[nH]c5c4)[nH]c3c2)CC1 |  | H37Rv | MIC90 |  | broth dilution / turbidity | 14.59 µg/mL
CCNC(=S)N=Nc1c(O)n(C)c2ccc(OC(F)(F)F)cc12 |  | H37Rv | EC90 |  | broth dilution / resazurin | >100 µg/mL
O=C(Nc1ccc(Br)cc1)c1ncccc1O |  | CNCTC MY 331/8 | MIC |  |  | 62.5 µM
Cc1cc2oc(=O)c(C3=NNC(c4ccc(O)cc4O)C3)c(O)c2cc1C |  | INHR-MTB | MIC90 | Isoniazid-resistant | agar | 32.1 µg/mL
Cc1ccc2c(=O)n(-c3ccc(C(F)(F)F)cc3)c(=O)oc2c1 |  | CNCTC MY331/88 | MIC |  |  | 32 µM
CCNC(=S)N=Nc1c(O)[nH]c2ccc(OC(F)(F)F)cc12 |  | H37Rv | EC50 |  | broth dilution / resazurin | 0.767 µg/mL
O=C(Nc1cccc([N+](=O)[O-])c1)c1ccccc1O |  | CNCTC MY 331/8 | MIC |  |  | 16 µM
NNC(=O)c1ccncc1 |  | STB-960 | MIC |  | resazurin | 0.125 µg/mL
c1ccc(-c2ccc(CNc3ccccc3N3CCOCC3)cc2)cc1 |  | 103471 | MIC |  |  | >16 µg/mL
Cc1ccc(CSc2nc(=O)[nH]c3nc[nH]c23)cc1 | 6.25 µg/mL | H37Rv | inhibition |  |  | 0%
Oc1[nH]c2ccc(OC(F)(F)F)cc2c1N=NC(=S)Nc1ccc(Cl)cc1 |  | H37Rv | EC50 |  | broth dilution / resazurin | 1.259 µg/mL
Cc1ncc(CO)c(C(=O)O)c1O |  | H37Rv | MIC bound |  | resazurin | >6.25 µg/mL
O=c1ccc2ccc(OCc3ccc(Br)cc3)cc2o1 | 100 µM | H37Rv | inhibition |  | fluorescence | 36.37%
Cc1ccc(/C=C2\CCCc3ccccc3C2=O)cc1 | 12.5 µg/mL | H37Rv | inhibition |  | broth dilution / resazurin | 0%
NNC(=O)c1ccncc1 |  | INHR-MTB | MIC90 | Isoniazid-resistant | agar | 11.37 µg/mL
O=C(NCc1cccc([N+](=O)[O-])c1)c1ncccc1S |  | CNCTC MY 331/8 | MIC |  |  | 8 µM
COc1ccccc1CSc1nc(=O)[nH]c2nc[nH]c12 | 6.25 µg/mL | H37Rv | inhibition |  |  | 0%
Cc1ccc2oc(=O)c3c(c2c1)OC(N)=C(C#N)C3c1cc2ccccc2nc1Oc1ccc(Cl)cc1 | 250 µg/mL | H37Rv | inhibition |  |  | 23%
Cc1ccc2[nH]c(O)c(N=NC(=S)NC3CCCCC3)c2c1 |  | H37Rv | EC90 |  | broth dilution / resazurin | 0.795 µg/mL
Clc1ccc(CNc2ccccc2N2CCSCC2)cc1 |  | 103471 | MIC |  |  | >16 µg/mL
Cc1cc(S(=O)(=O)Nc2nnc3cnc4ccccc4n23)c(S)cc1Cl | 12.5 µg/mL | H37Rv | inhibition |  | BACTEC | 0%
Cc1ccc(Oc2nc3ccc(C)cc3cc2C2C(C#N)=C(N)Oc3c2c(=O)oc2ccc(C)cc32)cc1 | 250 µg/mL | H37Rv | inhibition |  |  | 24%
Cc1cc2c(cc1C)[n+]([O-])c(-c1nc3ccccc3s1)c(N)[n+]2[O-] |  | EMB-R | MIC |  |  | 6.3 µg/mL
Cc1cc(=O)oc2cc(OCCN3CCC(Cc4ccccc4)CC3)ccc12 | 100 µM | H37Rv | inhibition |  | fluorescence | 91.82%
COc1ccc(/C=C2\COc3ccccc3C2=O)c(OC)c1 | 10 µg/mL | H37Rv | inhibition |  | broth dilution / resazurin | 0%
Cc1c(N)nc([C@H](CC(N)=O)NC[C@@H](N)C(N)=O)nc1C(=O)N[C@H](C(=O)NC(C)C(O)CC(=O)NC(C(=O)NC(OC1OC(C)C(N)C(O)C1O)C(O)c1nc(-c2nc(C(=O)NCCCCN)cs2)cs1)[C@H](C)O)C(OC1OC(CO)C(O)C(O)C1OC1OC(CO)C(O)C(OC(N)=O)C1O)c1cnc[nH]1.Cl.Cl.Cl.Cl |  | RMP-R | MIC |  |  | 0.1 µg/mL
CC1(C)CC(=O)C2=C(C1)N(Nc1ccc(Br)cc1)C(N)=C(C#N)C2c1cc2ccccc2nc1Cl |  | H37Rv | MIC |  | agar | 33 µg/mL
O=c1oc2ccc(Br)cc2c(=O)n1-c1cccc([N+](=O)[O-])c1 |  | CNCTC MY331/88 | MIC |  |  | 8 µM
O=C(Nc1cccc(Cl)c1)c1ncccc1O |  | CNCTC MY 331/8 | MIC |  |  | 62.5 µM
O=C1CCCCC/C1=C\c1ccc(Br)cc1 | 12.5 µg/mL | H37Rv | inhibition |  | broth dilution / resazurin | 3%
CCN1CCCc2cc3c(C(F)(F)F)cc(=O)oc3cc21 |  | H37Rv | MIC bound |  | BACTEC | >12.5 µg/mL
CCSc1nc(Cl)nc2nc[nH]c12 |  | H37Rv | MIC90 |  |  | >6.25 µg/mL
COC1=C2CC(C)CC(OC)C(O)C(C)/C=C(\C)C(OC(N)=O)C(OC)/C=C\C=C(/C)C(=O)NC(=C(C=NC(C)(C)C)C1=O)C2=O |  | RMP-R | MIC |  |  | >12.5 µg/mL
CC(=O)NC[C@H]1CN(c2ccc(N3CCN(Cc4ccc([N+](=O)[O-])o4)CC3)c(F)c2)C(=O)O1 |  | 16 isolates (MDR) | MIC90 |  |  | 16 µg/mL
COc1ccc2nc(Oc3ccc(C)cc3)c(C3C(C#N)=C(N)Oc4c3c(=O)oc3ccccc43)cc2c1 | 250 µg/mL | H37Rv | inhibition |  |  | 24%
O=C(O)C(=O)O.OC(CNCCc1ccccc1)CN1c2ccccc2Sc2ccccc21 |  | MDR-699 | MIC |  | resazurin | 8 µg/mL
CC1(C)N=c2cc3c(cc2N1c1ccc(Cl)cc1)=Nc1ccccc1N3c1ccc(Cl)cc1 |  | ETA-R | MIC |  |  | 0.8 µg/mL
Cc1ccc2[nH]c(O)c(N=NC(=S)Nc3ccc([N+](=O)[O-])cc3)c2c1 |  | H37Rv | EC90 |  | broth dilution / resazurin | >100 µg/mL
CC(=O)OC1CC2C(C)(C)CCCC2(C)C2C(=O)C(O)=C(C(C)C)C(=O)C12 | 12.5 µg/mL | H37Rv | inhibition |  | BACTEC | 99%
COc1ccc2c(=O)n(-c3cccc(F)c3)c(=O)oc2c1 |  | CNCTC MY331/88 | MIC |  |  | 16 µM
CCC(CC)n1cc(C(=O)NC(=O)NCCCCCOC(=O)CCCCCCCCCCC(=O)OCCCCCNC(=O)NC(=O)c2cn(C(CC)CC)c(=O)[nH]c2=O)c(=O)[nH]c1=O | 12.5 µg/mL | H37Rv | inhibition |  | BACTEC | 9%
COc1ccccc1CSc1ccccn1 | 6.25 µg/mL | H37Rv | inhibition |  |  | 5%
Cc1cc2oc(=O)c(C3=NN(c4ccccc4)C(c4ccc(O)cc4O)C3)c(O)c2cc1C |  | H37Rv | MIC90 |  | agar | >6.25 µg/mL
O=c1c2ccc(Cl)cc2nc2n1OCC2 |  | H37Rv | MIC bound |  | resazurin | >6.25 µg/mL
O=C(NCc1ccc(Cl)cc1)c1ncccc1S |  | CNCTC MY 331/8 | MIC |  |  | 8 µM
COc1ccc2nc(Cl)c(C3C(C#N)=C(N)N(Nc4ccc(Br)cc4)C4=C3C(=O)CC(C)(C)C4)cc2c1 |  | H37Rv | MIC |  | agar | 17 µg/mL
CC(CCOc1ccc2ccc(=O)oc2c1)C1=CC(=O)C(C)(C)O1 | 12.5 µg/mL | H37Rv | inhibition |  | BACTEC | 57%
Clc1ccccc1Sc1ncnc2nc[nH]c12 |  | H37Ra | MIC |  |  | >12.8 µg/mL
COc1ccc(C2SC(N)=Nc3c2c(C)nn3C(=O)c2ccc(Cl)cc2)cc1 |  | H37Rv | MIC bound |  | BACTEC | >12.5 µg/mL
O=C(NCc1ccc(Cl)c(Cl)c1)c1ncccc1O |  | CNCTC MY 331/8 | MIC |  |  | 62.5 µM
Cc1cccc(Sc2ncccn2)c1 |  | H37Ra | MIC |  |  | >12.8 µg/mL
Cn1c(O)c(N=NC(=S)Nc2ccc([N+](=O)[O-])cc2)c2cc(OC(F)(F)F)ccc21 |  | H37Rv | EC90 |  | broth dilution / resazurin | >100 µg/mL
O=C(NCc1ccc(Br)cc1)c1ncccc1S |  | CNCTC MY 331/8 | MIC |  |  | 8 µM
C=CCNC(=S)N=Nc1c(O)n(CN2CCOCC2)c2ccc(OC(F)(F)F)cc12 |  | H37Rv | EC90 |  | broth dilution / resazurin | >100 µg/mL
CN(C)C(=S)SSC(C)(C)C |  | H37Rv | MIC |  |  | 8 µg/mL
Cc1c(C#N)c(=O)oc2cc(OCc3ccccc3)ccc12 | 50 µM | H37Rv | inhibition |  | fluorescence | 33.08%
CCCCN(CCCC)CCNc1ccc(Cl)c2oc3cc(C)ccc3c(=O)c12.Cl | 12.5 µg/mL | H37Rv | inhibition |  | BACTEC | -6%
O=c1ccc2ccc(OCCN3CCC(Cc4ccccc4)CC3)cc2o1 | 1 µM | H37Rv | inhibition |  | fluorescence | 1.81%
O=c1oc2c(-c3ccccc3)n[nH]c(=O)c2c2c1CCCC2 | 12.5 µg/mL | H37Rv | inhibition |  | BACTEC | -23%
COc1ccc2nc(Cl)c(C3C(C#N)=C(N)N(Nc4ccc(C)cc4)C4=C3C(=O)CC(C)(C)C4)cc2c1 |  | H37Rv | MIC |  | agar | 50 µg/mL
Cc1c(C(=O)NN)sc(C(=O)NN)c1C |  | H37Rv | MIC bound |  | BACTEC | >12.5 µg/mL
CN1CCN(c2ccccc2NCc2ccc(Cl)cc2)CC1 |  | 103471 | MIC |  |  | >16 µg/mL

For reference, 9 entries again:

Cc1cccc(Sc2ncccn2)c1 ; strain or isolate: H37Ra ; read-out: MIC ; value: >12.8 µg/mL
Cc1ccc2c(=O)n(-c3ccc(C(F)(F)F)cc3)c(=O)oc2c1 ; strain or isolate: CNCTC MY331/88 ; read-out: MIC ; value: 32 µM
CC1(C)N=c2cc3c(cc2N1c1ccc(Cl)cc1)=Nc1ccccc1N3c1ccc(Cl)cc1 ; strain or isolate: ETA-R ; read-out: MIC ; value: 0.8 µg/mL
c1ccc(-c2ccc(CNc3ccccc3N3CCOCC3)cc2)cc1 ; strain or isolate: 103471 ; read-out: MIC ; value: >16 µg/mL
CCCCCCCCCCCC(=O)NC1CC(O[C@H]2C[C@](O)(C(=O)CO)Cc3c(O)c4c(c(O)c32)C(=O)c2c(OC)cccc2C4=O)OC(C)C1O ; strain or isolate: H37Rv ; read-out: MIC ; read by: BACTEC ; value: ≥12.5 µg/mL
NNC(=O)c1ccncc1 ; strain or isolate: INHR-MTB ; read-out: MIC90 ; mutations: Isoniazid-resistant ; read by: agar ; value: 11.37 µg/mL
Cc1c(C#N)c(=O)oc2cc(OCc3ccccc3)ccc12 ; dose: 50 µM ; strain or isolate: H37Rv ; read-out: inhibition ; read by: fluorescence ; value: 33.08%
Cc1ncc(CO)c(C(=O)O)c1O ; strain or isolate: H37Rv ; read-out: MIC bound ; read by: resazurin ; value: >6.25 µg/mL
CN1CCN(c2ccccc2NCc2ccc(Cl)cc2)CC1 ; strain or isolate: 103471 ; read-out: MIC ; value: >16 µg/mL

ECn: concentration that inhibits the pathogen or its effect by n%. An empty or dashed field is not shown. A number after MIC or MFC names an inhibition level or a share of isolates. Lines come from different laboratories, so protocols vary. Inhibition is in % at the dose shown (toxicity tests: loss of growth or viability). MIC bound: limit read from a one-dose screen.